A mixed list of measured activities; the numbers were collected in NIAID ChemDB.

Shared fields: tests in culture; agent: HIV-1; read-out: EC50

ECn: concentration that inhibits the pathogen or its effect by n%. Conditions beyond the fields shown may differ between rows. An empty or dashed field is not shown. Two numbers with a dash give a range or band.

SMILES | read by | strain or isolate | cells | mutations | result
Cc1ncc(-c2ncc(N)c(NCCOc3ccccc3)n2)c(N2CCC(C)(C)CC2)c1[C@H](OC(C)(C)C)C(=O)O | luminescence | NL4-3 | MT-2 |  | 0.1 µM
CC(C)c1c(Cc2ccccc2)n(COCc2ccccc2)c(=O)[nH]c1=O | p24 / ELISA | SF33 | PBMC |  | <0.0024 µM
Cc1cc(C#N)cc(C(=O)c2cc(Cl)ccc2OCC(=O)Nc2ccc(S(N)(=O)=O)cc2C)c1 | β-galactosidase | HXB2 (RT-K103N Y181C) Recombinant | HeLa + HELA CD4+ | RT-K103N Y181C | <0.01 µM
CCC(F)(F)COc1ccc(-c2cnc(C)c([C@H](OC(C)(C)C)C(=O)O)c2N2CCC(C)(C)CC2)nc1 | luminescence | NL4-3 | MT-2 |  | 0.0056 µM
Cc1cc(C#N)cc(C(=O)c2cc(Cl)ccc2OCC(=O)Nc2ccc(S(N)(=O)=O)nc2C)c1 | β-galactosidase | HXB2 | HeLa + HELA CD4+ | RT-V108I | <0.01 µM
CC(C)CN(C[C@@H](O)[C@H](Cc1ccccc1)NC(=O)O[C@H]1CO[C@H]2OCC[C@H]21)S(=O)(=O)c1ccc2nc(NC3CCN(C4CCCC4)CC3)sc2c1 | reporter gene | T13632 | MT-4 | V32I I50V L76V V82I | 42 nM
Cc1cc(S(N)(=O)=O)ccc1NC(=O)COc1ccc(Cl)cc1C(=O)c1cc(F)cc(C(F)(F)F)c1 | β-galactosidase | HXB2 | HeLa + HELA CD4+ | RT-V108I Y181C | 0.011–0.1 µM
CC1(C)CC=C(c2cn(-c3nccc(C(=O)NC4CCC(N5CC6CCC(C5)O6)CC4)n3)c3ccc(F)c([C@H](OC(C)(C)C)C(=O)O)c23)CC1 | luminescence | NL4-3 | MT-4 | E170G | 0.018 µM
Cc1cc(S(N)(=O)=O)ccc1NC(=O)COc1ccc(Cl)cc1C(=O)c1cc(Cl)cc(C#N)c1 | cytopathic effect / propidium iodide | IIIB | MT-4 |  | <0.01 µM
C[C@@H]1CN(C(=O)c2ccccc2)CCN1C(=O)C(=O)c1c[nH]c2c(NC(=O)NCCOCCOCCN)cccc12 | luciferase / reporter gene |  | HeLa |  | <1 µM
O=C(O)c1cc(-n2cccc2)ccc1Cl | luciferase / cell fusion | SF162 R5 CLADE B | PBMC/5.25M7 |  | 93.06 µM
CC(C)=CCOc1cc(NC(=S)c2ccoc2C)ccc1Cl | cytopathic effect / XTT | NL4-3 (RT K103N) | CEM + CEM-SS | RT-K103N | 0.1 µM
Cc1cc(OCCN(C)c2ccc(-c3cnc(C)c([C@H](OC(C)(C)C)C(=O)O)c3N3CCC(C)(C)CC3)cn2)ccc1F | luminescence | NL4-3 | MT-2 |  | 0.0032 µM
Cc1cc(OCCCS(N)(=O)=O)ccc1NC(=O)COc1ccc(Cl)cc1C(=O)c1cc(F)cc(C(F)(F)F)c1 | β-galactosidase | HXB2 | HeLa + HELA CD4+ | RT-V106I | <0.01 µM
C#C[C@@]1(CO)C=C[C@H](n2cc(C)c(=O)[nH]c2=O)O1 | recombinant virus assay | Clinical isolate | MT-2 | M41L/D67N/K70R/Y184V/L210W/T215Y/K219E | 4.522 µM
C[C@@H]1CN(C(=O)c2ccccc2)CCN1C(=O)C(=O)c1c[nH]c2c(NC(=O)c3ccno3)cccc12 | luciferase / reporter gene |  | HeLa |  | <1 µM
CC(C)C1=C2[C@H]3CC[C@@H]4[C@@]5(C)CC[C@H](OC(=O)[C@H]6C[C@@H](C(=O)O)C6(C)C)C(C)(C)[C@@H]5CC[C@@]4(C)[C@]3(C)CC[C@@]2(CCNC[C@@H](CO)NC(=O)c2ccc(Cl)cc2)CC1=O | p24 / ELISA | 92HT599 | MT-2 |  | <1 µM
CCCC1CC(Oc2ccc(-c3cnc(C)c([C@H](OC(C)(C)C)C(=O)O)c3N3CCC(C)(C)CC3)nc2)C1 | luminescence | NL4-3 | MT-2 |  | 0.005 µM
CCc1cc(C#N)cc(C(=O)c2cc(Cl)ccc2OCC(=O)Nc2ccc(S(N)(=O)=O)cc2C)c1 | β-galactosidase | HXB2 | HeLa + HELA CD4+ | RT-K103N V108I | <0.01 µM
CCC(=O)c1ccc(F)c([C@@H]2C[C@@H]2NC(=O)Nc2ccc(C#N)cn2)c1O | β-galactosidase / luminescence | LAI | TZM-bl | NNRTI-resistant (RT L100I) | 0.00503 µM
Nc1nc(NC2CC2)c2ncn([C@H]3C=C[C@@H](CO)C3)c2n1 | recombinant virus assay | Clinical isolate | MT-2 | M41L/A98G/K103N/M184V/L210W/T215Y | 0.8448 µM
C[C@@H]1CN(C(=O)c2ccccc2)CCN1C(=O)C(=O)c1c[nH]c2c(NC(=O)C(O)C(O)C(N)=O)cccc12 | luciferase / reporter gene |  | HeLa |  | <1 µM
Cc1nc2ccccc2c(-c2cc(F)c3c(c2C)CCCO3)c1[C@H](OC(C)(C)C)C(=O)O | luminescence | NL4-3 | MT-4 | G140S/Q148R | 0.017 µM
CC(C)C1=C2[C@H]3CC[C@@H]4[C@@]5(C)CC[C@H](OC(=O)[C@H]6C[C@@H](C(=O)O)C6(C)C)C(C)(C)[C@@H]5CC[C@@]4(C)[C@]3(C)CC[C@@]2(CC(=O)NCC(F)(CO)NC(=O)c2ccc(Cl)cc2)CC1=O | p24 / ELISA | 92HT599 | MT-2 |  | <1 µM
Cc1cc(S(N)(=O)=O)ccc1NC(=O)COc1ccc(Cl)cc1C(=O)c1cc(F)cc(F)c1 | β-galactosidase | HXB2 (RT-K103N G190A) Recombinant | HeLa + HELA CD4+ | RT-K103N G190A | 0.011–0.1 µM
CC(C)C1=C2[C@H]3CC[C@@H]4[C@@]5(C)CC[C@H](OC(=O)[C@H]6C[C@@H](C(=O)O)C6(C)C)C(C)(C)[C@@H]5CC[C@@]4(C)[C@]3(C)CC[C@@]2(CC(=O)NCC(C)(C)NC(=O)c2ccc(O[C@H]3CCOC3)cc2)CC1=O | p24 / ELISA | 92HT599 | MT-2 |  | <1 µM
CC(C)=CCOc1cc(NC(=S)c2ccsc2C)ccc1Cl | cytopathic effect / XTT | WEJO | PBMC |  | 0.007 µM
C[C@@H]1CCO[C@H]2Cn3cc(C(=O)NCc4ccc(F)cc4F)c(=O)c(O)c3C(=O)N12 | luciferase / luminescence |  | TZM-bl | V75I | 0.0013 µM
Cc1ncc(-c2ccc(N(C)CCOc3ccc(Cl)cc3)cn2)c(N2CCC(C)(C)CC2)c1[C@H](OC(C)(C)C)C(=O)O | luminescence | NL4-3 | MT-2 |  | 0.0016 µM
CN1c2ccccc2C2C1C=C(C#N)C(=O)N2c1ccc([N+](=O)[O-])cc1 | GFP / fluorescence | 7324-1 | HeLa |  | 0.01 µM
C[C@@H]1CN(C(=O)c2ccccc2)CCN1C(=O)C(=O)c1c[nH]c2c(NC(=O)NCC(=O)O)cccc12 | luciferase / reporter gene |  | HeLa |  | <1 µM
N#CC1=CC2Nc3ccccc3C2N(c2ccc([N+](=O)[O-])cc2)C1=O | GFP / fluorescence | 6463-13 | HeLa |  | 0.89 µM
CCCCSc1ncc(-c2cnc(C)c([C@H](OC(C)(C)C)C(=O)O)c2N2CCC(C)(C)CC2)cc1F | luminescence | NL4-3 | MT-2 |  | 0.0042 µM
CC(C)C1=C2[C@H]3CC[C@@H]4[C@@]5(C)CC[C@H](OC(=O)[C@H]6C[C@@H](C(=O)O)C6(C)C)C(C)(C)[C@@H]5CC[C@@]4(C)[C@]3(C)CC[C@@]2([C@@H](O)CNCC2(N)COC2)CC1=O | p24 / ELISA | 92HT599 | MT-2 |  | <1 µM
CCCc1cc(=O)oc2c3c(c4c(c12)OC(C)(C)CC4)O[C@@H](C)[C@H](C)[C@@H]3O | XTT | SK1 | CEM + CEM-SS |  | 0.3 µM
Cc1nnc(CN(CCN(C)C)CC[C@@]23CC[C@]4(C)[C@H](CC[C@@H]5[C@@]6(C)CC[C@H](OC(=O)[C@H]7C[C@@H](C(=O)O)C7(C)C)C(C)(C)[C@@H]6CC[C@]54C)C2=C(C(C)C)C(=O)C3)o1 | p24 / ELISA | 92HT599 | MT-2 |  | <1 µM
Cc1ncc(-c2ccc(NCCOc3cc(F)cc(F)c3)nc2)c(N2CCC(C)(C)CC2)c1[C@H](OC(C)(C)C)C(=O)O | luminescence | NL4-3 | MT-2 |  | 0.004 µM
CC(C)C1=C2[C@H]3CC[C@@H]4[C@@]5(C)CC[C@H](OC(=O)[C@H]6C[C@@H](C(=O)O)C6(C)C)C(C)(C)[C@@H]5CC[C@@]4(C)[C@]3(C)CC[C@@]2(CC(=O)N(CCN(C)C)Cc2cc(C(C)C)n[nH]2)CC1=O | p24 / ELISA | 92HT599 | MT-2 |  | <1 µM
C[C@H]1[C@H](O)[C@@H](C)/C=C/C=C/C=C/C=C/C=C/C=C/C=C/[C@H](O[C@@H]2O[C@H](C)[C@@H](O)[C@H](N)[C@@H]2O)C[C@@H]2O[C@](O)(C[C@@H](O)C[C@@H](O)CC[C@H](O)[C@@H](O)C[C@@H](O)CC(=O)O[C@H]1C)C[C@H](O)[C@H]2C(=O)O | p24 / RT activity | JV1083 CLADE G R5 (NSI) | PBMC |  | 1.3 µM

Repeating the final 4 entries:

| SMILES | read by | strain or isolate | cells | mutations | result |
|---|---|---|---|---|---|
| Cc1nnc(CN(CCN(C)C)CC[C@@]23CC[C@]4(C)[C@H](CC[C@@H]5[C@@]6(C)CC[C@H](OC(=O)[C@H]7C[C@@H](C(=O)O)C7(C)C)C(C)(C)[C@@H]6CC[C@]54C)C2=C(C(C)C)C(=O)C3)o1 | p24 / ELISA | 92HT599 | MT-2 |  | <1 µM |
| Cc1ncc(-c2ccc(NCCOc3cc(F)cc(F)c3)nc2)c(N2CCC(C)(C)CC2)c1[C@H](OC(C)(C)C)C(=O)O | luminescence | NL4-3 | MT-2 |  | 0.004 µM |
| CC(C)C1=C2[C@H]3CC[C@@H]4[C@@]5(C)CC[C@H](OC(=O)[C@H]6C[C@@H](C(=O)O)C6(C)C)C(C)(C)[C@@H]5CC[C@@]4(C)[C@]3(C)CC[C@@]2(CC(=O)N(CCN(C)C)Cc2cc(C(C)C)n[nH]2)CC1=O | p24 / ELISA | 92HT599 | MT-2 |  | <1 µM |
| C[C@H]1[C@H](O)[C@@H](C)/C=C/C=C/C=C/C=C/C=C/C=C/C=C/[C@H](O[C@@H]2O[C@H](C)[C@@H](O)[C@H](N)[C@@H]2O)C[C@@H]2O[C@](O)(C[C@@H](O)C[C@@H](O)CC[C@H](O)[C@@H](O)C[C@@H](O)CC(=O)O[C@H]1C)C[C@H](O)[C@H]2C(=O)O | p24 / RT activity | JV1083 CLADE G R5 (NSI) | PBMC |  | 1.3 µM |